Results deposited as PubChem BioAssay AID1224833 (University of Georgia, 2016)
Aim: 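Host factors restraining rotavirus as candidate antiviral genes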 (primary screen). Cells: monkey MA104 kidney cells. Reagent: siRNA pool against human genes, 50 nM. Timing: 48 h knock-down before infection; read 24 h after infection. Challenge: infection with rotavirus strain RV3 two days after transfection; infectious dose for this stage not given. Measurement: 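Rotavirus antigen per well by fluorescent immunoassay, normalised to non-targeting control wells on each plate and given as a standard z-score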. Scale: z-score vs non-targeting control: higher = more rotavirus replication than with non-targeting control. Hit rule: In these data the active calls have z-score vs non-targeting control at about -1 or lower, or at about 1 or higher. Calls: active = z-score beyond 1 either way; inactive = z-score within 1 of zero.
The deposit covers about 12,000 reagents; below is a part drawn at random. In the full data, about 5,600 (46%) are marked active. 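Active calls cover z-scores past 1 in both directions, so they include lowered as well as raised rotavirus replication.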 Entries without a mark were called inactive.

| Target gene | z-score vs non-targeting control |
| --- | --- |
| WFIKKN1 | 0.629 |
| YIPF7 | -0.51 |
| APOBEC3C | -1.49 (active) |
| ZSWIM1 | 0.493 |
| FBLIM1 | -0.682 |
| DNAJB5 | -1.33 (active) |
| ALDH6A1 | -1.35 (active) |
| ASH1L | 0.179 |
| GRM6 | 1.14 (active) |
| TMED2 | 1.26 (active) |
| H2AC7 | -3.39 (active) |
| SATL1 | -0.23 |
| FAT1 | 0.5 |
| ZNF579 | -1.92 (active) |
| WDR55 | -1.21 (active) |
| TFAP4 | -1.26 (active) |
| DLL3 | 0.734 |
| EPHX3 | -0.8 |
| CNIH1 | 0.158 |
| RANBP1 | -1.61 (active) |
| ETV4 | -1.01 (active) |
| EDIL3 | -2.06 (active) |
| MXRA5 | -2.15 (active) |
| SUN5 | 1.13 (active) |
| HSD17B3 | -1.45 (active) |
| TNFRSF10C | -2.3 (active) |
| LRP5 | 1.56 (active) |
| TMEM254 | -1.54 (active) |
| OPN1MW | 1.28 (active) |
| ASPN | -2.23 (active) |
| NUCB2 | -0.135 |
| CNOT8 | -1.15 (active) |
| MAGEB2 | -0.509 |
| URGCP | -1.67 (active) |
| ZNF829 | 1.4 (active) |
| TBC1D9B | 1.02 (active) |
| ANKRA2 | 0.0268 |
| MOG | -0.842 |
| AP4S1 | 0.102 |
| CCDC34 | -0.464 |
| HMGCS1 | 0.59 |
| MRO | 1.18 (active) |
| ZNF367 | 2.28 (active) |
| CYS1 | -0.173 |
| PPP1R27 | -1 (active) |
| OGFRL1 | 0.279 |
| SOX14 | 0.333 |
| MTCH1 | 0.857 |
| CXCR4 | -1.04 (active) |
| CMTM5 | -0.374 |
| NCBP1 | -1.13 (active) |
| RUNX2 | 1.44 (active) |
| EPYC | 0.479 |
| XTBD1 | -0.984 |
| OR10G9 | 1.14 (active) |
| IGFL1 | -0.234 |
| LYPD2 | -0.201 |
| TXNRD3 | 0.534 |
| CNOT11 | 1.72 (active) |
| GNG13 | -0.235 |
| PRM1 | -1.29 (active) |
| OR6S1 | -0.567 |
| RASAL1 | -0.752 |
| WDR33 | -0.464 |
| UMOD | 0.0014 |
| ZW10 | -2.35 (active) |
| USP21 | 0.972 |
| TEX12 | -0.469 |
| BTC | 0.811 |
| FKBP15 | -1.33 (active) |
| CTDSPL2 | 0.892 |
| HNRNPK | -0.647 |
| RP1 | -1.95 (active) |
| KRTAP5-8 | 1.01 (active) |
| SRPX2 | 0.21 |
| ARHGDIA | 1.39 (active) |
| HSD11B2 | -0.837 |
| SH2D4B | 0.0708 |
| STX11 | 2.17 (active) |
| SPANXN4 | -0.832 |
| NKIRAS1 | -0.837 |
| EFNA1 | 0.84 |
| IL3RA | -2.07 (active) |
| SPATA8 | 0.468 |
| CXCL2 | -1.24 (active) |
| HNRNPDL | 0.156 |
| SLC26A3 | 0.853 |
| BAALC | -2.71 (active) |
| ITM2C | -2.81 (active) |
| LIMD1 | 0.502 |
| RPS7 | -2 (active) |
| MS4A6A | -0.903 |
| OMD | 0.202 |
| IFIT5 | -0.0028 |
| CAP2 | 0.423 |
| CBS | -1.59 (active) |
| UPF2 | 0.749 |
| CAPSL | -1.61 (active) |
| FCRL1 | -0.0534 |
| DEF6 | -0.512 |
| TRNP1 | -2.08 (active) |
| GALNT4 | 1.16 (active) |
| ZNF675 | -0.134 |
| ZNHIT1 | -1.08 (active) |
| PCDH17 | -1.77 (active) |
| SHMT2 | -2.66 (active) |
| CCDC181 | 1.23 (active) |
| ITFG2 | -0.935 |
| SNAPC2 | -0.721 |
| DSCAM | -0.942 |

A portion of the results above:
| Target gene | z-score vs non-targeting control |
| --- | --- |
| MTCH1 | 0.857 |
| CXCR4 | -1.04 (active) |
| CMTM5 | -0.374 |
| NCBP1 | -1.13 (active) |
| RUNX2 | 1.44 (active) |
| EPYC | 0.479 |
| XTBD1 | -0.984 |
| OR10G9 | 1.14 (active) |
| IGFL1 | -0.234 |
| LYPD2 | -0.201 |
| TXNRD3 | 0.534 |
| CNOT11 | 1.72 (active) |
| GNG13 | -0.235 |
